{
  "source": "paper PMC4853472",
  "about": "“Trapping mammalian protein complexes in viral particles” (Nature Communications, 2016)",
  "origin": "cited, not measured here",
  "target": "GAG (Human immunodeficiency virus 1) (UniProt O93182)",
  "data": [
    {"substance": "Cyclophilin A (from UniProt P62937)", "values": [
      {"measurement": "Kd", "value": 16, "unit": "µM"}
    ]}
  ]
}
